Experimental data from paper PMC7229044, “Triterpenoid acids isolated from Schinus terebinthifolia fruits reduce Staphylococcus aureus virulence and abate dermonecrosis” (Scientific Reports, 2020).

Columns and labels:
Assay type in all cases: cell-based, Staphylococcus aureus
Details in all cases: IC50 for HaCaT cytotoxicity divided by IC50 for agr activity
[1] = tested on: agr activity, AH1677 (agr I)
Experimental: (§1) S. aureus agr reporter strains AH1677 (agr I), AH430 (agr II), AH1747 (agr III) and AH1872 (agr IV) were grown overnight in TSB supplemented with chloramphenicol at 37 °C while shaking at 200 rpm. Cultures of S. aureus were standardized by optical density (OD600nm) matching to a 0.5 McFarland standard to reach a final inoculum density in the wells of 5 × 10^5 CFU mL^−1 in TSB, supplemented with 10 μg/mL chloramphenicol. […] Black sided, 96-well, clear bottom, tissue-culture treated plates (Costar 3603) with final well volume of 200 μL were used for all agr inhibition assays. Plates were incubated in a humidified chamber at 37 °C while shaking at 260 rpm. After 24 hours, plates were removed and OD600 and fluorescence were measured by plate reader at an excitation of 493 nm and emission of 535 nm. All tests were performed in triplicate and repeated using a new stock of bacteria on a separate day.

[2] = tested on: agr activity, AH1747 (agr III)
Experimental: as §1

[3] = tested on: agr activity, AH1872 (agr IV)
Experimental: as §1

[4] = tested on: agr activity, AH430 (agr II)
Experimental: as §1

Row | Structure (SMILES) | Therapeutic Index [1] | Therapeutic Index [2] | Therapeutic Index [3] | Therapeutic Index [4]
1 | CC1(C)CCC2(C(=O)O)CCC3(C)C(=CCC4C5(C)CCC(=O)C(C)(C)C5CCC43C)C2C1 (stereo not drawn) [Compound 1, 3-oxo-olean-12-en-28-oic acid] | 8 | 2 | 4 | 35
2 | CC(=CCCC(C)C1CCC2(C)C3=CCC4C(C)(C)C(=O)CCC4(C)C3CCC12C)C(=O)O (stereo not drawn) [Compound 2, 3-oxotirucalla-7,24Z-dien-26-oic acid] | 18 | 8 | 8 | 35
3 | CC(=CCCC(C)C1CCC2(C)C3=CCC4C(C)(C)C(O)CCC4(C)C3CCC12C)C(=O)O (stereo not drawn) [Compound 3, 3α-hydroxytirucalla-7,24Z-dien-26-oic acid] | 18 | 8 | 8 | 8
